Measured values from several laboratories, pooled; numbers as filed in NIAID ChemDB.

Common to all: growth or infection tests; species: HIV-1

ECn: concentration that inhibits the pathogen or its effect by n%. Blank or dashed fields: not listed here. Conditions beyond the fields shown may differ between rows.

smiles,read by,cells,strain or isolate,endpoint,changes,value
Nc1ncnc2c1ncn2[C@@H]1O[C@H](CO)C[C@@H]1F,p24,MT-2,Q151M(RT-Q151M),EC50,RT-Q151M,5 µM
Fc1cccc(F)c1C1SCc2nc3ccccc3n21,cytopathic effect / XTT,CEM + CEM-SS,UC38-R(RT-Y181C,EC50,RT-Y181C,4.7 µM
Cc1occc1C(=S)Nc1ccc(Cl)c(/C=N/OC(C)(C)C)c1,cytopathic effect / XTT,CEM + CEM-SS,TIBO R82150-resistant (RT A98G V108I),EC50,RT-A98G V108I,1.1 µM
CC1=C(C(=O)Nc2ccc(Cl)c(C(=O)OC(C)C)c2)SCCO1,cytopathic effect / XTT,AA5,IIIB,EC50,-,0.53 µM
CC(=O)N1CCC(C(=O)N(CCCN2CCC(Cc3ccc(C(N)=O)cc3)CC2)c2ccc(C)c(Cl)c2)CC1,luciferase,U87 (CD4+ CCR5+) + U87,R5 subtype A_3 recombinant,EC50,-,0.0057 µM
CCC[C@@H](c1ccc(C(F)(F)F)cc1)N1CCN(C2(C)CCN(C(=O)c3c(C)ncnc3C)CC2)C[C@@H]1C,-,PBMC,ADA-M Clinical isolates,EC90,-,0.00003 µM
O=[N+]([O-])c1ccccc1S(=O)(=O)c1ccccc1,cytopathic effect / XTT,U-937,IIIB,EC50,-,7.98 µM
Fc1cccc(F)c1C1SCc2nc3ccccc3n21,cytopathic effect / XTT,CEM + CEM-SS,IIIB,EC50,-,1.28 µM
O=c1[nH]cnc2c1ncn2[C@H]1CC[C@@H](CO)O1,p24,MT-2,HXB2,EC50,-,1.5 µM
O=c1[nH]cnc2c1ncn2C1CC[C@@H](CO)O1,p24 / ELISA,Primary T lymphocytes,LAI,EC50,-,11.5 µM
CCN(C)c1nc(N)nc2c1ncn2CCOCP(=O)(O)O,cytopathic effect / MTT,MT-4,IIIB,EC50,-,0.19 µg/mL
Cc1cc(S(N)(=O)=O)ccc1NC(=O)COc1ccc(Cl)cc1C(=O)c1cc(Cl)cc(C#N)c1,β-galactosidase,MAGI,NNRTI-resistant (RT E138K),EC50,RT-E138K,0.0013 µM
O=C(O)P(=O)(O)O,p24,PBMC,9281 CLADE A CLADE A,EC50,-,21.6 µM
CN1C(=S)N=S(=O)(O)c2cccc(Cl)c21,cytopathic effect / XTT,CEM + CEM-SS,IIIB,EC50,-,>951 µM
CC(C)CN(C[C@@H](O)[C@H](Cc1ccccc1)NC(=O)O[C@H]1CCOC1)S(=O)(=O)c1ccc(N)cc1,-,MT-4,NL4-3,EC50,M46I I50V N38K M36I GRL05010-resistant,>1 µM
Cc1cn([C@H]2C[C@H](N=[N+]=[N-])[C@@H](CO)O2)c(=O)[nH]c1=O,p24,MT-2,P119S(RT-P119S),EC50,RT-P119S,0.012 µM
CC(C)(C)NC(=O)[C@@H]1C[C@@H]2CCCC[C@@H]2CN1C[C@@H](O)[C@H](Cc1ccccc1)NC(=O)[C@H](CC(N)=O)NC(=O)c1ccc2ccccc2n1,-,MT-4,NL4-3,EC50,L10F V32I M46I I45M A71V I84V APV resistant,0.09 µM
CC(C)Nc1cccnc1N1CCN(C(=O)c2cc3cc(NS(C)(=O)=O)ccc3[nH]2)CC1,cytopathic effect,CEM,P-1 (RT-K103N Y144F),EC50,RT-K103N Y144F,1.27 µg/mL
Nc1nc(=O)n([C@@H]2CS[C@H](CO)O2)cc1F,p24 / ELISA,Primary T lymphocytes,-,EC50,L74V,0.2 µM
CC(C)=CCOc1cc(NC(=S)c2ccoc2C)ccc1Cl,cytopathic effect,CEM,D-3 (RT-V108I M184I),EC50,RT-V108I M184I,0.0041 µg/mL
CCc1c(Sc2ccccn2)n(COCc2ccccc2)c(=O)[nH]c1=O,cytopathic effect / XTT,CEM + CEM-SS,UC781-R (RT-Y181C),EC50,RT-Y181C,3.1 µM
O=S1(c2ccccc2)=NC(=S)Nc2ccccc21,p24,Macrophage,RF,EC50,-,0.07 µM
CCN(CC)C(=O)OCC1CN(C(=O)c2cc(OC)c(OC)c(OC)c2)CCN1C(=O)c1cc(OC)c(OC)c(OC)c1,RT activity,PBL,BaL,EC50,-,5 µM
Cc1cn([C@H]2C=C[C@@H](CO)O2)c(=O)[nH]c1=O,β-galactosidase,MAGI (CCR5) + MAGI,NL4-3,EC50,RT-K103N,0.21 µM
CC[C@@H](c1ccc(C(F)(F)F)cc1)N1CCN(C2(C)CCN(C(=O)c3c(C)ncnc3C)CC2)C[C@@H]1C,-,PBMC,JRFL Clinical isolates,EC50,-,<0.019 µM
C/C=C/CSc1cc(NC(=S)c2ccsc2C)ccc1Cl,cytopathic effect / XTT,CEM + CEM-SS,NL4-3 (RT Y181C),EC50,RT-Y181C,0.8 µM
Cc1ccnc2c1NC(=O)c1cccnc1N2C1CC1,MTT,MT-4,Y188L (subtype B),EC50,-,>2 µg/mL
CC(C)Nc1cccnc1N1CCN(C(=O)c2cc3cc(NS(C)(=O)=O)ccc3[nH]2)CC1,antigen,MT-4,MF,EC50,-,~0.05 µM
Cc1cn([C@H]2C[C@H](N=[N+]=[N-])[C@@H](CO)O2)c(=O)[nH]c1=O,cytopathic effect / XTT,PBMC,IIIB,EC50,-,0.022 µM
Nc1nc(NC2CC2)c2ncn([C@H]3C=C[C@@H](CO)C3)c2n1,cytopathic effect / XTT,MT-2,Site-directed mutant,EC50,RT-K65R Y115F M184V,>3.44 µM
Cc1cn([C@H]2C[C@H](N=[N+]=[N-])[C@@H](CO)O2)c(=O)[nH]c1=O,MTT,MT-4,AMD3100RES (subtype B),EC50,-,0.0005 µg/mL
O=c1[nH]cnc2c1ncn2[C@H]1CC[C@@H](CO)O1,p24,U-937,U455,EC50,-,4.5 µM
CCCCCNc1nc(N)nc2c1[nH]c[n+]2C[C@@H](C)OCP(=O)(O)O,cytopathic effect / MTT,MT-4,IIIB,EC50,-,37.4 ± 13 µg/mL
CCCN(C)C(=O)Oc1nsnc1-c1c(Cl)ccc(N)c1Cl,MTT,MT-4,IIIB-R,EC50,-,4.8 µM
C[C@H](C[n+]1c[nH]c2c(Nc3ccoc3)nc(N)nc21)OCP(=O)(O)O,cytopathic effect / MTT,MT-4,IIIB,EC50,-,10 µg/mL
Cc1cn([C@H]2C[C@H](N=[N+]=[N-])[C@@H](CO)O2)c(=O)[nH]c1=O,cytopathic effect / XTT,CEM + CEM-SS,TP1,EC50,-,0.005 µM
C[C@H](Cn1cnc2c(N)ncnc21)OCP(=O)(O)O,cytopathic effect / XTT,MT-2,Site-directed mutant,EC50,RT-K65R M184V,7.56 µM
CN1N=C(N)c2cn([C@@H]3O[C@H](COP(=O)(O)O)[C@@H](O)[C@H]3O)c3ncnc1c23,XTT,CEM + CEM-SS,C,EC50,-,0.06 µM
CC(C)c1nc(CN(C)C(=O)N[C@H](C(=O)N[C@@H](Cc2ccccc2)C[C@H](O)[C@H](Cc2ccccc2)NC(=O)OCc2cncs2)C(C)C)cs1,p24,MT-4,NL4-3,EC50,PR-D30N A71V,<0.01 µM
C[C@H](C[n+]1c[nH]c2c(NCCCCCCCC3CCCCC3)nc(N)nc21)OCP(=O)(O)O,cytopathic effect / MTT,MT-4,IIIB,EC50,-,8 ± 2 µg/mL
CC(C)(C)NC(=O)[C@@H]1C[C@@H]2CCCC[C@@H]2CN1C[C@@H](O)[C@H](Cc1ccccc1)NC(=O)[C@H](CC(N)=O)NC(=O)c1ccc2ccccc2n1,p24,MT-4,NL4-3,EC95,-,0.025 µM
CCCc1cc(=O)oc2c3c(c4c(c12)OC(C)(C)C=C4)O[C@H](C)[C@@H](C)[C@@H]3O,cytopathic effect / XTT,Macrophage,IIIB,EC50,-,0.05 µM
Nc1ccn([C@H]2CC[C@@H](CO)O2)c(=O)n1,p24,MT-2,M184V(RT-M184V),EC50,RT-M184V,1.1 µM
Cc1ccnc2c1NC(=O)c1cccnc1N2C1CC1,cytopathic effect,CEM,C-1 (RT-K101E),EC50,RT-K101E,0.0051 µg/mL
CCO/N=C(\c1ccc(Br)cc1)C1CCN(C2(C)CCN(C(=O)c3c(C)cc[n+]([O-])c3C)CC2)CC1,p24,PBMC,QZ4589 R5 CLADE B,EC50,-,0.01 µM
Nc1nc(=O)n([C@@H]2CS[C@H](CO)O2)cc1F,plaque count,HT4 + HT4 LacZ-1,RTMN (RT-M41L T215Y),EC50,RT-M41L 215Y,0.34 µM
Cc1ccnc2c1NC(=O)c1cccnc1N2C1CC1,β-galactosidase,MAGI (CCR5) + MAGI,HXB2 WT,EC50,-,0.022 µM
Nc1ccn([C@H]2CC[C@@H](CO)O2)c(=O)n1,plaque count,HT4 + HT4 LacZ-1,RTMC(181 184) (RT 67N 70R Y181C M184V T215F K219Q),EC50,RT-D67N K70R Y181C M184V T215F K219Q,0.95 µM
COC(=O)N[C@H](C(=O)N[C@@H](Cc1ccccc1)[C@@H](O)CN(Cc1ccc(-c2ccccn2)cc1)NC(=O)[C@@H](NC(=O)OC)C(C)(C)C)C(C)(C)C,MTT,MT-2,LAI,EC50,-,0.005 µM
O=C1CN=C(c2ccc[nH]2)c2cc(Cl)ccc2N1,antigen,HuT-78 + HUT 78,IIIB/LAI,EC50,-,0.9 µM
CCc1c(C(=O)c2cc(C)cc(C)c2)n(CC2CC=CC2)c(=O)[nH]c1=O,cytopathic effect / XTT,CEM + CEM-SS,IIIB,EC50,-,0.0009 µM
CC(C)CN(C[C@@H](O)[C@H](Cc1ccccc1)NC(=O)[C@H](CC(N)=O)NC(=O)c1ccc2ccccc2n1)C(=O)NC(C)(C)C,p24,MT-4,NL4-3,EC95,PR-L10R L63P,0.2 µM
N#CC[C@H](C1CCCC1)n1cc(-c2ncnc3[nH]ccc23)cn1,p24 / ELISA,Primary T lymphocytes,-,EC50,K65R,0.2 µM

6 of the rows above, restated:

smiles,read by,cells,strain or isolate,endpoint,changes,value
C[C@H](C[n+]1c[nH]c2c(NCCCCCCCC3CCCCC3)nc(N)nc21)OCP(=O)(O)O,cytopathic effect / MTT,MT-4,IIIB,EC50,-,8 ± 2 µg/mL
Cc1cn([C@H]2C[C@H](N=[N+]=[N-])[C@@H](CO)O2)c(=O)[nH]c1=O,cytopathic effect / XTT,PBMC,IIIB,EC50,-,0.022 µM
Cc1cn([C@H]2C[C@H](N=[N+]=[N-])[C@@H](CO)O2)c(=O)[nH]c1=O,cytopathic effect / XTT,CEM + CEM-SS,TP1,EC50,-,0.005 µM
O=[N+]([O-])c1ccccc1S(=O)(=O)c1ccccc1,cytopathic effect / XTT,U-937,IIIB,EC50,-,7.98 µM
N#CC[C@H](C1CCCC1)n1cc(-c2ncnc3[nH]ccc23)cn1,p24 / ELISA,Primary T lymphocytes,-,EC50,K65R,0.2 µM
O=c1[nH]cnc2c1ncn2C1CC[C@@H](CO)O1,p24 / ELISA,Primary T lymphocytes,LAI,EC50,-,11.5 µM